Data from patent US20230145822A1 (priority 2020, published 2023).

Amino acid sequences for entries named in this document (tags omitted). Residues count along the entry.
UniProt P04925, 23-254 limits assumed: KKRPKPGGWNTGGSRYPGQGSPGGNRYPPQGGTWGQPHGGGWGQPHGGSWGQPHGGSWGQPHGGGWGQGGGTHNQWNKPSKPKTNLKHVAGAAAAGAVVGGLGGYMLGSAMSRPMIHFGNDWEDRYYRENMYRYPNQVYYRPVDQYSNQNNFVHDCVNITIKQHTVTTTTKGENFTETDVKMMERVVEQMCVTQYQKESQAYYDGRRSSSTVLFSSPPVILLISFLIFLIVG

Molecular target: mouse PrP^C (Mus musculus, UniProt P04925)

| SMILES | DC50 [µM] |
| --- | --- |
| COc1cc(C2CC(=O)Nc3c2cnn3-c2ccc(C)cc2)ccc1O (centres unmarked) | > 30 |
| COc1ccc(C2CC(=O)N(C)c3c2cnn3-c2ccc(Br)cc2)cc1OC (centres unmarked) | > 30 |
| COc1cc(C2CC(=O)Nc3c2cnn3-c2cccc(Br)c2)ccc1O (centres unmarked) | > 30 |
| COc1cc(C2CC(=O)Nc3c2cnn3-c2ccc(F)cc2F)ccc1O (centres unmarked) | > 30 |
| O=C1CC(c2ccc3c(c2)OCCO3)c2cnn(-c3ccc(Br)cc3)c2N1 (centres unmarked) | 10.2 |
| COc1ccc(C2CC(=O)Nc3c2cnn3-c2ccc(Br)cc2)cc1O (centres unmarked) | > 30 |
| COc1cc(C2CC(=O)Nc3c2c(C)nn3-c2ccc(Br)cc2)ccc1O (centres unmarked) | > 30 |
| COc1ccc(C2CC(=O)Nc3c2cnn3-c2ccc(F)c(Cl)c2)cc1O (centres unmarked) | > 30 |
| COc1cc(C2CC(=O)Nc3c2cnn3-c2ccccc2)ccc1O (centres unmarked) | > 30 |
| COc1cc(C2CC(=O)Nc3c2cnn3-c2ccc(Br)cc2)ccc1OCc1ccccc1 (centres unmarked) | > 30 |
| CCOc1cc(C2CC(=O)Nc3c2cnn3-c2ccc(Br)cc2)ccc1OC (centres unmarked) | 12 |
| O=C1CC(c2ccccc2)c2cnn(-c3ccc(Br)cc3)c2N1 (centres unmarked) | > 30 |
| COc1cc(C2CC(=O)Nc3c2cnn3-c2ccc(F)cc2)ccc1O (centres unmarked) | > 30 |
| COc1cc(C2CC(=O)Nc3c2cnn3-c2ccc(C(F)(F)F)cc2)ccc1O (centres unmarked) | > 30 |
| COc1cc(C2CC(=O)Nc3c2cnn3-c2ccccc2Br)ccc1O (centres unmarked) | > 30 |
| COc1cc(C2CC(=O)Nc3c2cnn3-c2ccc(Cl)cc2)ccc1O (centres unmarked) | 24.6 |
| COc1cc(C2CC(=O)Nc3c2cnn3-c2ccc(Br)cc2)cc(OC)c1OC (centres unmarked) | > 30 |
| O=C1CC(c2ccc(Oc3ccccc3)cc2)c2cnn(-c3ccc(Br)cc3)c2N1 (centres unmarked) | > 30 |
| COc1ccc(C2CC(=O)Nc3c2cnn3-c2cccc(Br)c2)cc1O (centres unmarked) | > 30 |
| COc1cc(C2CC(=O)N(C)c3c2cnn3-c2ccc(Br)cc2)ccc1O (centres unmarked) | > 30 |
| COc1ccc(C2CC(=O)N(C)c3c2cnn3-c2ccc(I)cc2)cc1OC (centres unmarked) | > 30 |
| COc1cc(C2CC(=O)Nc3c2cnn3-c2ccc(I)cc2)ccc1O (centres unmarked) [GC6] | 7 |
| COc1cc(C2CC(=O)Nc3c2cnn3-c2ccc(Br)cc2)ccc1O (centres unmarked) [SM875] | 12.5 |
| COc1ccc(C2CC(=O)Nc3c2cnn3-c2ccc(I)cc2)cc1O (centres unmarked) | 8.8 |
| O=C1CC(c2ccc(O)cc2)c2cnn(-c3ccc(Br)cc3)c2N1 (centres unmarked) | 12.5 |
| COc1ccc(C2CC(=O)Nc3c2cnn3-c2ccccc2F)cc1O (centres unmarked) | > 30 |
| COc1ccc(C2CC(=O)Nc3c2cnn3-c2ccc(F)cc2F)cc1O (centres unmarked) | > 30 |
| O=C1CC(c2ccc3c(c2)OCCO3)c2cnn(-c3ccc(I)cc3)c2N1 (centres unmarked) | > 30 |
| COc1cc(C2CC(=O)Nc3c2cnn3-c2ccccc2F)ccc1O (centres unmarked) | > 30 |
